{"source": "paper PMC7567097", "about": "“A nanoluciferase SARS-CoV-2 for rapid neutralization testing and screening of anti-infective drugs for COVID-19” (Nature Communications, 2020)", "test_system": "SARS-CoV-2-Nluc", "type": "cell-based", "note": "No dose or concentration is given here for some results."}
{"smiles": "CCC(CC)COC(=O)[C@H](C)N[P@](=O)(OC[C@H]1O[C@@](C#N)(c2ccc3c(N)ncnn23)[C@H](O)[C@@H]1O)Oc1ccccc1", "note": "[Remdesivir]", "values": [{"measurement": "fold difference of EC50 between Vero E6 and A549-hACE2 cells (lower in A549-hACE2)", "result": "> 10", "unit": "fold"}]}
{"smiles": "CCOC(=O)/C=C/[C@H](C[C@@H]1CCNC1=O)NC(=O)[C@@H](CC(=O)[C@@H](NC(=O)c1cc(C)on1)C(C)C)Cc1ccc(F)cc1", "note": "[Rupintrivir]", "values": [{"measurement": "fold lower potency against SARS-CoV-2-Nluc than against HRV", "result": 156, "unit": "fold"}]}
